Measured values from several laboratories, pooled; numbers as filed in NIAID ChemDB.

All rows: whole-cell or culture tests; species: Cryptosporidium parvum; read-out: inhibition

Inhibition is in % at the dose shown (toxicity tests: loss of growth or viability).

structure | tested at | cells | strain | result
CCc1nc(N)nc(N)c1-c1ccc(Cl)cc1 | 0.8 µg/mL | L929 | Calf isolate | 51.78%
O=c1[nH]c(=O)n([C@H]2C[C@H](O)[C@@H](CO)O2)cc1C(F)(F)F | 10 µg/mL |  |  | 84%
CCCCN(CCCC)CCC(O)c1cc2c(Cl)cc(Cl)cc2c2cc(C(F)(F)F)ccc12 | 4 µg/mL | L929 | Calf isolate | 63.58%
Nc1ncnc2c1ncn2[C@@H]1O[C@H](CO)[C@@H](O)[C@@H]1O | 50 µg/mL |  |  | 12%
N/C(=N\N=C\c1ccc(Cl)cc1)N/N=C/c1ccc(Cl)cc1 | 4 µg/mL | L929 | Human isolate | -1.26%
CO[C@@]12[C@H](COC(N)=O)C3=C(C(=O)C(C)=C(N)C3=O)N1C[C@@H]1N[C@@H]12 | 1 µM | HCT-8 |  | 67%
Nc1nc(=O)n([C@H]2C[C@H](O)[C@@H](CO)O2)cc1I | 10 µg/mL |  |  | 92%
CO[C@@H]1[C@@H](OC)[C@H](C)[C@@](O)(CC(=O)O)O[C@H]1[C@H](C)[C@H]1O[C@@]2(CC[C@@](C)([C@H]3CC[C@@](C)([C@@H]4O[C@@H]([C@H]5O[C@](C)(O)[C@H](C)C[C@@H]5C)C[C@@H]4O[C@@H]4C[C@H](OC)[C@@H](OC)[C@H](C)O4)O3)O2)C[C@H](O)[C@H]1C | 0.5 µg/mL |  |  | 100%
CN(C)[C@@H]1C(=O)C(C(N)=O)=C(O)[C@@]2(O)C(=O)C3=C(O)c4c(O)cccc4[C@@](C)(O)[C@H]3[C@H](O)[C@@H]12 | 4 µg/mL | L929 | Calf isolate | 44.41%
CO[C@H]1O[C@@H](n2ccc(=O)[nH]c2=O)C[C@@H]1N=[N+]=[N-] | 100 µg/mL |  |  | 9%
CC(C)[C@H](NC(=O)[C@H](CCCN=C(N)N)NC(=O)N[C@@H](Cc1ccccc1)C(=O)O)C(=O)N[C@H](C=O)CCCN=C(N)N | 500 µg/mL |  |  | 84.42%
Cc1cn([C@H]2C[C@H](N=[N+]=[N-])[C@@H](CO)O2)c(=O)[nH]c1=O | 100 µg/mL |  |  | 13%
Cc1cn([C@H]2C[C@H](N=[N+]=[N-])[C@@H](CO)O2)c(=O)[nH]c1=O | 0.032 µg/mL | L929 | Calf isolate | -19.41%
NC[C@@H]1O[C@H](O[C@H]2[C@@H](O)[C@H](O[C@@H]3[C@@H](O)[C@H](N)C[C@H](N)[C@H]3O[C@H]3O[C@H](CO)[C@@H](O)[C@H](O)[C@H]3N)O[C@@H]2CO)[C@H](N)[C@@H](O)[C@@H]1O | 1000 µg/mL | HT29.74 |  | 95%
NC[C@@H]1O[C@H](O[C@H]2[C@@H](O)[C@H](O[C@@H]3[C@@H](O)[C@H](N)C[C@H](N)[C@H]3O[C@H]3O[C@H](CO)[C@@H](O)[C@H](O)[C@H]3N)O[C@@H]2CO)[C@H](N)[C@@H](O)[C@@H]1O | 100 µM | Caco2 |  | 55%
CCCCCCCCCCOc1cc2c(=O)c(C(=O)OCC)c[nH]c2cc1OCC | 50 µM |  |  | 0%
C[C@H]1[C@H](O)[C@@H](C)/C=C/C=C/C=C/C=C/C=C/C=C/C=C/[C@H](O[C@@H]2O[C@H](C)[C@@H](O)[C@H](N)[C@@H]2O)C[C@@H]2O[C@](O)(C[C@@H](O)C[C@@H](O)CC[C@H](O)[C@@H](O)C[C@@H](O)CC(=O)O[C@H]1C)C[C@H](O)[C@H]2C(=O)O | 0.032 µg/mL | L929 | Calf isolate | -30.37%
CC[C@@H](C(=O)[C@@H](C)[C@@H](O)[C@H](C)CCc1ccc(C)c(O)c1C(=O)O)[C@H]1O[C@](CC)([C@H]2CC[C@](O)(CC)[C@H](C)O2)C[C@@H]1C | 1 µM | HCT-8 |  | 100%
CC(C)N=C(N)/N=C(\N)Nc1ccc(Cl)cc1 | 20 µg/mL | L929 | Calf isolate | 55%
CCCN(CCC)c1c([N+](=O)[O-])cc(C(F)(F)F)cc1[N+](=O)[O-] | 1 µM | HCT-8 |  | 100%
NC(=O)c1ncn([C@@H]2O[C@H](CO)[C@@H](O)[C@H]2O)n1 | 100 µg/mL |  |  | 89%
CC(C)c1nc(CN(C)C(=O)N[C@H](C(=O)N[C@@H](Cc2ccccc2)C[C@H](O)[C@H](Cc2ccccc2)NC(=O)OCc2cncs2)C(C)C)cs1 | 10 µg/mL | HCT-8 |  | 45%
NC12CC3CC(CC(C3)C1)C2 | 50 µg/mL |  |  | 0%
CN[C@@H]1[C@@H](O)[C@@H](O[C@@H]2[C@@H](O)[C@H](O[C@H]3O[C@H]([C@@H](C)O)[C@@H](O)[C@H](O)[C@H]3N)[C@@H](N)C[C@H]2N)OC[C@]1(C)O | 1000 µg/mL | APH-CACO-2 |  | 60%

3 of the rows above, restated:

structure,tested at,cells,strain,result
Nc1ncnc2c1ncn2[C@@H]1O[C@H](CO)[C@@H](O)[C@@H]1O,50 µg/mL,,,12%
NC12CC3CC(CC(C3)C1)C2,50 µg/mL,,,0%
CC(C)c1nc(CN(C)C(=O)N[C@H](C(=O)N[C@@H](Cc2ccccc2)C[C@H](O)[C@H](Cc2ccccc2)NC(=O)OCc2cncs2)C(C)C)cs1,10 µg/mL,HCT-8,,45%

Blank or dashed fields: not listed here. Rows are shuffled and stem from different studies.